Source: paper PMC4904373, “Azole Antifungal Sensitivity of Sterol 14α-Demethylase (CYP51) and CYP5218 from Malassezia globosa” (Scientific Reports, 2016)

System: CC(C)=CCC[C@@H](C)[C@H]1CC[C@@]2(C)C3=C(CC[C@]12C)[C@@]1(C)CC[C@H](O)C(C)(C)[C@@H]1CC3
Assay: purified protein, by the assay type
Details: other: 0.13 μM CYP51, 0.5 μM AfCPR1, 5 min at 37 °C, substrate inhibition equation

M. globosa CYP51 (Malassezia globosa CBS 7966; A7V/E4L/G6A/I5L/L2A/Q3L/W8F)
Km: 55.14 ± 6.51 µM
kcat: 22.47 ± 2.19 min⁻¹
